Laboratory results taken from US20160355553A1 (Janssen / Centocor, published 2016).

Assays:
Assay in all cases: FACS on HEK293F [D00014 FIG. 10B]
HK68 H3m2-cl9+10+11 = HK68 H3m2-cl9+10+11 (influenza A virus H3N2, UniProt Q91MA7 17-566)
HK68 H3m2-cl9+10+12 = HK68 H3m2-cl9+10+12 (influenza A virus H3N2, UniProt Q91MA7 17-566)
HK68 H3m2-cl9+10+11+12 = HK68 H3m2-cl9+10+11+12 (influenza A virus H3N2, UniProt Q91MA7 17-566)
HK68 H3m2-cl9+10+11+13 = HK68 H3m2-cl9+10+11+13 (influenza A virus H3N2, UniProt Q91MA7 17-566)
[1] = molecular target: HK68 H3m2-cl9+10+11+12-tri (influenza A virus H3N2, UniProt Q91MA7 17-566)
[2] = molecular target: HK68 H3m2-cl9+10+11+13-tri (influenza A virus H3N2, UniProt Q91MA7 17-566)
[3] = molecular target: HK68 H3m2-cl9+10+11+13-GCN4 (influenza A virus H3N2, UniProt Q91MA7 17-566)
HK68 H3m2-cl9 = HK68 H3m2-cl9 (influenza A virus H3N2, UniProt Q91MA7 17-566)
HK68 H3m2-cl9+10 = HK68 H3m2-cl9+10 (influenza A virus H3N2, UniProt Q91MA7 17-566)

Measured: binding result

B1: CR8057 (antibody, V domains shown)
VH: EVQLVESGGGLVQPGGSLRLSCAASGFTDSVIFMSWVRQAPGKGLECVSIIYIDDSTYYADSVKGRFTISRHNSMGTVFLEMNSLRPDDTAVYYCATESGDFGDQTGPYHYYAMDV
VL: QSALTQPASVSGSPGQSITISCTGSSGDIGGYNAVSWYQHHPGKAPKLMIYEVTSRPSGVSDRFSASRSGDTASLTVSGLQAEDEAHYYCCSFADSNILI
no binding (tested: 5 ug/ml): HK68 H3m2-cl9+10+11

B2: CR9114 (antibody, V domains shown)
VH: QVQLVQSGAEVKKPGSSVKVSCKSSGGTSNNYAISWVRQAPGQGLDWMGGISPIFGSTAYAQKFQGRVTISADIFSNTAYMELNSLTSEDTAVYFCARHGNYYYYSGMDVWGQGTTVTVSS
VL: SYVLTQPPAVSGTPGQRVTISCSGSDSNIGRRSVNWYQQFPGTAPKLLIYSNDQRPSVVPDRFSGSKSGTSASLAISGLQSEDEAEYYCAAWDDSLKGAVFGGGTQLTVL
no binding (tested: 5 ug/ml): all assays above
